System: P. falciparum 3D7
Assay: In vitro inhibition of P. falciparum 3D7 (SYBR Green I-based fluorescence assay)
Assay type: cell-based, Plasmodium falciparum
Settings: dose-response curve

SMILES	hill slope
COc1cccc(-c2ncc(-c3ccccc3O)o2)c1OC [Compound 31, 2-(2′,3′-dimethoxyphenyl)-5-(2″-hydroxyphenyl)oxazole]	2.10
COc1cccc(-c2ncc(-c3ccccc3OCc3ccccc3)o2)c1OC [Compound 32, 2-(2′,3′-dimethoxyphenyl)-5-(2″-benzyloxyphenyl)oxazole]	2.02

Reference: article PMC11067372, “Evaluation of the antiplasmodial efficacy of synthetic 2,5-diphenyloxazole analogs of compounds naturally derived from Oxytropis lanata” (International Journal for Parasitology: Drugs and Drug …, 2024)
